Experimental data as given in patent US20230234992A1.

Target: S TAGLESS EXPI293 N77825-4
Test: SPR

Q: CR3022 was tested. Which Kd did it give?
A: 0.059 nM

Q: Which Kd does the source give for S309 here?
A: 0.07 nM
